Data as given in PubChem BioAssay AID624099 (ICCB-Longwood, 2012).
Here is one part, drawn at random, of about 21,000 reagents. 497 of them (2.4%) were called active. 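Higher z means weaker E2 silencing; only reporter increases were scored, and knock-downs that hurt cell survival may mask genuine repressor factors.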 No sequences are given here.

Test: 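Host factors E2 relies on to silence an HPV18 LCR reporter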 (primary screen)
System: human C33A cervical carcinoma cells (HPV-negative) stably expressing BPV1 E2 and an HPV18 LCR luciferase reporter
Reagents: siRNA pool against human genes, 40 nM
Duration: 72 h
Measurement: 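HPV18 LCR reporter light per well, converted to plate-wise z-scores that exclude control wells, and averaged over triplicate plates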
Scale: mean z-score and z-score: higher = stronger reporter signal, weaker E2 silencing
Hit rule: 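Hit if mean z-score reaches 2 and two or more of three replicate z-scores also reach 2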

| target | mean z-score | z-score, replicate A | z-score, replicate B | z-score, replicate C | outcome |
| --- | --- | --- | --- | --- | --- |
| ZNF571 | -1.06 | -0.62 | -1.3 | -1.25 | inactive |
| NTM-AS1 | 0.6 | 0.72 | 0.33 | 0.77 | inactive |
| NIPAL1 | -0.93 | -1.14 | -0.73 | -0.91 | inactive |
| ZNF446 | -0.26 | -0.37 | -0.12 | -0.28 | inactive |
| IL22RA2 | -0.55 | -0.65 | -0.72 | -0.27 | inactive |
| VAPA | 0.88 | 0.73 | 0.86 | 1.05 | inactive |
| HOXD9 | -0.39 | -0.28 | -0.11 | -0.77 | inactive |
| AOPEP | -0.25 | -0.24 | -0.23 | -0.28 | inactive |
| TPP1 | 0.77 | 0.43 | 0.92 | 0.95 | inactive |
| LOC391373 (retired record) | -0.03 | -0.29 | 0.35 | -0.16 | inactive |
| FAIM2 | 0.7 | 0.69 | 0.34 | 1.07 | inactive |
| KNCN | 0.93 | 0.04 | 1.24 | 1.52 | inactive |
| FKBP2 | 2.96 | 3.05 | 3.31 | 2.51 | active |
| TADA2A | 1.3 | 1.28 | 1.27 | 1.34 | inactive |
| FLJ40536 (retired record) | -0.27 | -0.49 | -0.24 | -0.07 | inactive |

In a second layout: results already given
NTM-AS1
- mean z-score: 0.6
- z-score, replicate A: 0.72
- z-score, replicate B: 0.33
- z-score, replicate C: 0.77
- outcome: inactive

NIPAL1
- mean z-score: -0.93
- z-score, replicate A: -1.14
- z-score, replicate B: -0.73
- z-score, replicate C: -0.91
- outcome: inactive

Continued.
| target | mean z-score | z-score, replicate A | z-score, replicate B | z-score, replicate C | outcome |
| --- | --- | --- | --- | --- | --- |
| MYT1 | 0.27 | 0.16 | 0.53 | 0.13 | inactive |
| ADGRA1 | 0.25 | 0.45 | -0.02 | 0.31 | inactive |
| NUTM2F | -0.03 | -0.12 | -0.16 | 0.18 | inactive |
| PRORP | 1.51 | 1.39 | 1.49 | 1.63 | inactive |
| TMEM255A | -0.66 | -0.7 | -0.51 | -0.78 | inactive |
| GMCL1 | -1.49 | -1.67 | -1.41 | -1.38 | inactive |
| PREPL | -0.19 | -0.22 | -0.24 | -0.1 | inactive |
| CSPG4 | 0.3 | -0.08 | 0.7 | 0.27 | inactive |
